Target: recombinant CpLDH protein (Cryptosporidium parvum, UniProt Q9GT92, F198L/K295E/R251K)
Experiment: Inhibition of the catalytic activity of recombinant CpLDH (reduction of pyruvate to lactate, OD340)
Conditions: 20 μM compound; 10 mM pyruvate, 1 mM NADH; values below 0 = augmenters

c1ccc2c(NCCCCCCCCNc3c4ccccc4nc4ccccc34)c3ccccc3nc2c1
MEAN CpLDH INHIBITION (%): -99.53%

Source: publication PMC6687188, “Novel lactate dehydrogenase inhibitors with in vivo efficacy against Cryptosporidium parvum” (PLoS Pathogens, 2019)
